{
  "source": "patent US20060014673A1",
  "about": "(priority 1998, published 2006)",
  "key": {"[1]": {"system": "Primary cultures of neonatal rat cortex", "assay": "Fluo-3 fluorimetry of intracellular calcium, non-depolarized cortical cultures", "type": "cell-based"}, "[2]": {"system": "Primary cultures of neonatal rat cortex", "details": "for effect on intracellular calcium levels: increasing concentrations in the continued presence of aconitine"}},
  "data": [
    {"compound": "CC[C@H](C)[C@H](NC(=O)[C@@H](NC(=O)[C@H](CO)NC(=O)[C@@H]1CCCN1C(=O)[C@@H](NC(=O)[C@H](CC(C)C)NC(=O)[C@H](Cc1c[nH]c2ccccc12)NC(=O)[C@@H]1CCCN1C(=O)[C@H](C)N)C(C)C)[C@@H](C)O)C(=O)N[C@H](C(=O)N[C@H](C(=O)N[C@H]1CSSC[C@@H]2NC(=O)[C@H](CCSC)NC(=O)[C@H]([C@@H](C)O)NC(=O)CNC(=O)[C@@H]3C[C@@H](O)CN3C(=O)[C@H](CC(N)=O)NC(=O)[C@H](Cc3ccc(O)cc3)NC(=O)CNC(=O)[C@H](CSSC[C@@H]3NC(=O)[C@H](CCCNC(=N)N)NC(=O)[C@H](CSSC[C@@H](C(N)=O)NC(=O)[C@H]([C@@H](C)O)NC(=O)[C@H](CC(N)=O)NC(=O)[C@H](CC(=O)O)NC3=O)NC(=O)[C@@H]3C[C@@H](O)CN3C(=O)[C@@H]3C[C@@H](O)CN3C2=O)NC1=O)[C@@H](C)O)[C@@H](C)O", "values": [
      {"measurement": "potency in non-depolarized compared with depolarized cultures", "setting": "[1]", "result": "equally potent"},
      {"measurement": "effect on intracellular calcium levels", "setting": "[2]", "result": "further significant enhancement"}
    ]},
    {"compound": "CC[C@H](C)[C@H](NC(=O)[C@@H](NC(=O)[C@H](CO)NC(=O)[C@@H]1CCCN1C(=O)[C@@H](NC(=O)[C@H](CC(C)C)NC(=O)[C@H](Cc1c[nH]c2ccccc12)NC(=O)[C@@H]1CCCN1C(=O)[C@H](C)N)C(C)C)[C@@H](C)O)C(=O)N[C@H](C(=O)N[C@H](C(=O)N[C@H]1CSSC[C@@H]2NC(=O)[C@H](CCCNC(=N)N)NC(=O)[C@H](CSSC[C@@H](C(N)=O)NC(=O)[C@H]([C@@H](C)O)NC(=O)[C@H](CC(N)=O)NC(=O)[C@H](CC(=O)O)NC2=O)NC(=O)[C@@H]2C[C@@H](O)CN2C(=O)[C@@H]2C[C@@H](O)CN2C(=O)[C@@H]2CSSC[C@H](NC1=O)C(=O)NCC(=O)N[C@@H](Cc1ccc(O)cc1)C(=O)N[C@@H](CC(N)=O)C(=O)N1C[C@H](O)C[C@H]1C(=O)NCC(=O)N[C@@H]([C@@H](C)O)C(=O)N[C@@H](CCSC)C(=O)N2)[C@@H](C)O)[C@@H](C)O", "values": [
      {"measurement": "potency in non-depolarized compared with depolarized cultures", "setting": "[1]", "result": "slightly less potent"},
      {"measurement": "EC50", "setting": "[1]; read-out: potency, increase in intracellular calcium, non-depolarized environment (no Aconitine)", "result": 1580, "unit": "nM"},
      {"measurement": "effect of 4-AP pretreatment on the κA A671 induced calcium response", "setting": "[2]; 2 uM peak 2 in continued presence of 4-AP and aconitine", "result": "reduced the size"},
      {"measurement": "potency of peak 2 relative to peak 1", "setting": "[2]; depolarized with Aconitine", "result": "approximately 10 fold"},
      {"measurement": "effect on intracellular calcium levels", "setting": "[2]", "result": "further significant enhancement"},
      {"measurement": "increase in intracellular calcium in the continued presence of dendrotoxin", "setting": "[2]; peak 2 (2 μM), cells pretreated with aconitine and dendrotoxin", "result": "still able to produce a significant increase"}
    ]},
    {"compound": "Ala-Xaa3-Xaa4-Leu-Val-Xaa3-Ser-Thr-Ile-Thr-Thr-Cys-Cys-Gly-Xaa5-Asn-Xaa3-Gly-Thr-Met-Cys-Xaa3-Xaa3-Cys-Arg-Cys-Asp-Asn-Thr-Cys", "values": [
      {"measurement": "change of the induced response over time", "setting": "[2]; up to 30 min, 1 μM, in Aconitine", "result": "No significant changes"}
    ]}
  ]
}
